Biological target: HIV-1 NL4-3 gp120 envelope on the surface of infected T2 cells (HIV-1 NL4-3)
Test: cell-based or functional assay

CD4ζ chimeric antigen receptor (fusion molecule of human CD4 with the signaling domain of the CD3 complex ζ-chain) (from UniProt P01730 26-396; P20963 52-164)
Cytolytic activity by chromium release; Tscm transduced with Triple CAR against HIV-1 infected T2 cells, 10:1 ratio, 3.5 hours: 28.2%

Source: patent US20180305435A1
